Anti-infective test results gathered from many reports (values: NIAID ChemDB through PubChem).

Shared fields: growth or infection tests; species: HIV-1; method: cytopathic effect / XTT; endpoint: fold resistance

Conditions beyond the fields shown may differ between rows. Fold resistance: result on the changed form divided by that on wild type.

structure	cell line	strain	changes	result
CCc1c(Sc2ccccn2)n(COCc2ccccc2)c(=O)[nH]c1=O	CEM + CEM-SS	NL4-3	RT-K103E	19.4
Cc1occc1C(=S)Nc1ccc(Cl)c(/C=N/OC(C)(C)C)c1	CEM + CEM-SS	NL4-3 (RT A98G)	RT-A98G	8.75
Cc1cn([C@H]2C=C[C@@H](CO)O2)c(=O)[nH]c1=O	MT-2	Site-directed mutant	RT-K65R Y115F M184V	1.3
Cc1cn([C@H]2C[C@H](N=[N+]=[N-])[C@@H](CO)O2)c(=O)[nH]c1=O	CEM + CEM-SS	NL4-3	RT-K103N	53.3
CCCc1cc(=O)oc2c3c(c4c(c12)OC(C)(C)C=C4)O[C@H](C)[C@@H](C)[C@@H]3O	CEM + CEM-SS	IIIB(THZ-R(I))	RT-V108I	16
Cc1ccnc2c1NC(=O)c1cccnc1N2C1CC1	CEM + CEM-SS	NL4-3 (RT Y188C)	RT-Y188C	160
Cc1cn([C@H]2C[C@H](N=[N+]=[N-])[C@@H](CO)O2)c(=O)[nH]c1=O	CEM + CEM-SS	NL4-3	RT-Y181C	10
Cc1ccnc2c1NC(=O)c1cccnc1N2C1CC1	CEM + CEM-SS	NL4-3	RT-L100I	5
CC(C)=CCN1Cc2cccc3[nH]c(=S)n(c23)C[C@@H]1C	CEM + CEM-SS	IIIB(CALO-R(II))	RT-V90I T139I P225S	2.2
CCc1c(C(=O)c2cc(C)cc(C)c2)n(CC2CC=CC2)c(=O)[nH]c1=O	CEM + CEM-SS	NL4-3	RT-L100I	0.1
Cc1cn([C@H]2C[C@H](N=[N+]=[N-])[C@@H](CO)O2)c(=O)[nH]c1=O	CEM + CEM-SS	IIIB(OC-R(I))	RT-L100I	0.7
C/C=C/CSc1cc(NC(=S)c2ccsc2C)ccc1Cl	CEM + CEM-SS	NL4-3 (RT Y188C)	RT-Y188C	12
Nc1nc(NC2CC2)c2ncn([C@H]3C=C[C@@H](CO)C3)c2n1	MT-2	Site-directed mutant	RT-K65R Y115F M184V	>8
c1ccc2c(c1)sc1nccn12	CEM + CEM-SS	IIIB HEPT-resistant (IV)	RT-P236L	0.2

Again, the opening 2 rows:

structure	cell line	strain	changes	result
CCc1c(Sc2ccccn2)n(COCc2ccccc2)c(=O)[nH]c1=O	CEM + CEM-SS	NL4-3	RT-K103E	19.4
Cc1occc1C(=S)Nc1ccc(Cl)c(/C=N/OC(C)(C)C)c1	CEM + CEM-SS	NL4-3 (RT A98G)	RT-A98G	8.75